Numbering of substitutions follows the chain as printed. Human monoclonal antibodies against the spike receptor-binding domain (heavy:light variable regions). IC50 against pseudoviruses bearing the spike of naturally observed variants; lower = stronger; >10 µg/ml means not reached at the top dose. No active / inactive call. The stated detection limit is 0.0005 µg/ml; values near or below 0.001 µg/ml lie at the floor of the assay.
B1: BD55-6303 (protein)
chain 1: EVQLVQSGAEVKKPGESLKISCKGSGFRFTNYWIGWVRQMPGKGLEWMGIIYPDDSDTRYSPSFQGQVTISADKSISVAYLQWSSLKASDTAIYYCARPICGGDCLPVYWGQGTLVTVSS
chain 2: DIQMTQSPSTLSASVGDRVTITCRASQSITGWLAWYQQKPGKAPKLLIQKASSLESGVPSRFSGSGSGTEFTLTISSLQPEDFATYYCQQYNSHPWTFGQGTKVEIK
B2: BD55-6313 (protein)
chain 1: QVTLKESGPVLVKPTETLTLTCTVSGFSLSNTRVGVSWIRQTPGKALEWLAHIFSNDAESYSTSLRNRLTVSKDPSKSQAVLIMTDMDPVDTATYYCARQTYDHSSGWYEDYWGQGALVTVSS
chain 2: DIQMTQSPSSLSASVGDRVTITCRASQSISTYLNWYQQKSGKAPTLLIHAASSLQSGVPSRFSASGSGTDFTLTISSLQPEDFATYYCHQSYSTPPTFGQGTKLEIK
B3: BD55-6315 (protein)
chain 1: EVQLVESGGGLVHPGGSLRLSCAASGFNFVNFEMDWVRQAPGKGLEWISHIRSSDSTTFYADSVKGRFTISRDNARNSLYLQMSSLRAEDTAVYYCARSQLYYSDSNGYGNYYYYYGMDVWGQGTTVTVSS
chain 2: DIQMTQSPSSLSASVGDRVTITCRASQSISTYLNWYQQKPGKAPKLLIYAASSLQSGVPSTFSGSGSGTDFTLTISSLQPEDFATYYCQQSYTTPQAWTFGQGTKVELK
B4: BD55-6316 (protein)
chain 1: QVQLVQSGAEVKKPGASVKVSCKASGYTFTSYYIHWVRQAPGQGLEWMGIINPDGGSTTYAQKFQGRFTMTRDTSTSTVYMELYSLRSEDTALYYCARDWGLVPASMYYFDYWGQGTLVTVSS
chain 2: EIVLTQSPATLSLSPGERATLSCRASQSVSSYLAWYQQKPGQAPRLLIYDASNRATGIPARFSGSGSGTDFTLTISSLEPEDFAVYYCQQRGNWPRTFGQGTKVEI
B5: BD55-6318 (protein)
chain 1: QVQLVESGGGVVQPGRPLRLSCVASGFTFSSHDMHWVRQAPGKGLEWVALISKDGGGKFYADSVKGRTTISRDNSKNTLYLQMNGLRGEDTAVYYCARDILSSTSPGTVFDKWGQGTLVTVSS
chain 2: EILMTQSPVTLSVSPGERATLSCRASQSVGSSLAWYQQKPGQAPRLLIYGASTRATDIPARFSGSGSGTDFTLTISSLQSEDFAVYYCQQYYTWPPDTFGQGTKLEIK
B6: BD55-6320 (protein)
chain 1: QVQLEESGPGLVKPSQILSLTCSVSGNSISSVSYCWNWIRQPAGKGLEWIGHMCGSGNTDSNPSLKSRVSISVDTSKNQFSLKMSSVTAADTAVFYCARSTGDYEFDYWGQGTLVTVSS
chain 2: DIQMTQSPPTLSASVGDRVTITCRASQSIGRWLAWYQQKPGRAPKLLIYKASILETGVPSRFGGSGSGTEFTLSFNSLQPDDFATYYCQQYNDYPPTFGGGTKVEIK
B7: BD55-6325 (protein)
chain 1: B4 chain 1 with V37L, F68V, M70L, R72S, Y80F, Y84S, L93V, Y112F
chain 2: B4 chain 2
B8: BD55-6330 (protein)
chain 1: QLQLAQSGAEVKKPGASVKVSCKASGDTFTGYYIHWVRQAPGQGLEWMGWINPNSGGTSYAHKFQGRVTMTRDTSISTAYMELSGLRSDDTAVYYCAREIPMITDPQVAFDIWGQGTMVTVSS
chain 2: DIQMTQSPSSLSASVGDRVTITCRASQSISTYLNWYQQKPGKAPKLLIYAASTLQSGVPSRFSGGGSGTDFSLTISSLQPEDFATYYCQQSYSFSYTFGQGTKLEIK
B9: BD55-6333 (protein)
chain 1: QVQLVQSGAEVKKPGASVKVSCKASGYTFTNYEINWVRQATGQGLEWMGWMNPDSGITAYAPKFQGRVTMTTNTPISTAYMELSSLTSEDTAVYYCAREKTGEGMLKYYYYDMDVWGQGTTVIVSS
chain 2: DIQMTQSPSALSASVGDGVTITCRASQNINTNLNWYRQKPGKAPELLIYAASSLQSGVPSRFSGSGSGTDFTLTISSLQPEDFASYYCQQSYTTPTTFGQGTKVEIK
B10: BD55-6340 (protein)
chain 1: QVTLKESGPVLVKPTETLTLTCTVSGFSLSNPRMGVSWIRQSPGRALEWLAHIFSTVETSYNPSLKSRLTVSKDTSKSHVVLTMTTVDPVDTATYYCAREPGGPWGSSAFDIWGQGTVVTVSS
chain 2: QSALTQPASVSGSPGQSITISCTGTSSDVGNYNLVSWYQQHPGKAPKLIIYEVSERPSGVSDRFSGSKSGNTASLTISGLQAEDEADYHCCSYAGDSTVIFGGGTKLTVL
B11: BD55-6342 (protein)
chain 1: DVQLLESGGGLVQPGGSLRLSCAASGFTFSDYAMSWVRQAPGRGLEWVSTISYSGVTTYFADSVEGRFTISRDNSKNTVSLQMNSLRAEDTALYYCARDSRGYYSMDVFDIWGQGTMVTVSS
chain 2: DVVMTQSPLSLPVTLGQPASISCRSSQSLVYSDGNTYLNWFQQRPGQSPRRLIYQVSNRDSGVPDRFSGSGSATDFTLTISRVEAEDVGVYYCMQGTHWPRTFGQGTKVELK
B12: BD55-1226 (protein)
chain 1: QVQLVESGGGVVQPGRSLRLSCAASGFSLKTYGMHWVRQAPGKGLEWVAVIWDDGKNKLYAESVKGRITISSDNSQNTVYLQMTSLRAEDTAVYYCARDMGRLVSWFDYWGQGTLVTVSS
chain 2: DIQMTQSPSSLSASVGDRVTITCRASQSISRYLNWYQHKPGTAPKLLIYDASSLQSGVPSRFSGSGSGTDFTLTISSLQPEDFATYFCQQSYNTPPWTFGQGTKVEVK

Tests used:
Assay in all cases: pseudovirus neutralization IC50; higher = weaker neutralization
[1] = target: SARS-CoV-2 Omicron BA.1 spike pseudovirus
Protocol: (§1)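 Single-round VSV luciferase pseudovirus mixed with antibody dilutions for 1 h and put on Huh-7 cells for about a day; IC50 from the dose curve.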

[2] = target: SARS-CoV-2 Omicron BA.2 spike pseudovirus
Protocol: as §1

[3] = target: SARS-CoV-2 Omicron BA.2.75 spike pseudovirus
Protocol: as §1

[4] = target: SARS-CoV-2 Omicron BA.5 spike pseudovirus
Protocol: as §1

[5] = target: SARS-CoV-2 Omicron BQ.1.1 spike pseudovirus
Protocol: as §1

[6] = target: SARS-CoV-2 Omicron XBB spike pseudovirus
Protocol: as §1

[7] = target: SARS-CoV-2 early D614G spike pseudovirus
Protocol: as §1

Row | Binder | pseudovirus neutralization IC50 [1] [µg/mL] | pseudovirus neutralization IC50 [2] [µg/mL] | pseudovirus neutralization IC50 [3] [µg/mL] | pseudovirus neutralization IC50 [4] [µg/mL] | pseudovirus neutralization IC50 [5] [µg/mL] | pseudovirus neutralization IC50 [6] [µg/mL] | pseudovirus neutralization IC50 [7] [µg/mL]
1 | B1 | > 10 | > 10 | > 10 | > 10 | > 10 | > 10 | > 10
2 | B2 | > 10 | > 10 | > 10 | > 10 | > 10 | > 10 | > 10
3 | B3 | > 10 | > 10 | > 10 | > 10 | > 10 | > 10 | > 10
4 | B4 | > 10 | > 10 | > 10 | > 10 | > 10 | > 10 | > 10
5 | B5 | > 10 | > 10 | > 10 | > 10 | > 10 | > 10 | 2.52
6 | B6 | > 10 | > 10 | > 10 | > 10 | > 10 | > 10 | 0.7
7 | B7 | 4.14 | 3.74 | 3.67 | 3.3 | > 10 | > 10 | 3.87
8 | B8 | > 10 | > 10 | > 10 | > 10 | > 10 | > 10 | 4.45
9 | B9 | > 10 | > 10 | > 10 | > 10 | > 10 | > 10 | > 10
10 | B10 | > 10 | > 10 | > 10 | > 10 | > 10 | > 10 | 0.222
11 | B11 | > 10 | > 10 | > 10 | > 10 | > 10 | > 10 | > 10
12 | B12 | > 10 | > 10 | > 10 | > 10 | > 10 | > 10 | 4.4

From the supplement of paper PMC9931576
